Molecular target: T1, human fibronectin (human, UniProt P02751 32-2477)
T1 construct: also called FN; full-length (FL) fibronectin
Assay: ELISA with a fibronectin-specific polyclonal antibody (FIG. 15F)

B1:  (other)
chain: TDSTVSTDPVTLNTEKTTLDQDVVINGDNKITAVTIETSDSDKDLNVTFGGHDITAASTVNQDFVEGVKVSGNKNVVIAATASTITAQGEGTYVRTAMVIDSTGDVVVAGGNFVAKNEKGSATGISLEATTGNNLTLAGTTINAQGNKSYSNGSTAIFAQKGNLLQGFDGDATDNITLAASNIINGGIETIVTAGNKTGIHTVNLNIAAGSVIGAANNKQTIYASASAQGAGSATQNLNLSVAASTIYSDVLALSESENSASTTTNVNMNVAASYWEGNAYTFNSGDKAGSDLDINLSASSVWKGKVSGAGDASVSLQNGSVWNVTGSSTVDALAVKDSTVNITKATVNTGTFASQNGTLIVDASSENTLDISGKASGDLRVYSAGSLDLINEQTAFISTGKDSTLKATGTTEGGLYQYDLTQGADGNFYFVKNTHKASNASSVIQAMAAAPANVANLQADTL
  binding result: no binding

From patent US20210292397A1 (LA TROBE UNIVERSITY, published 2021)
